Experimental data taken from patent US20030119019 (published 2003).

Experiments:
[1] = target: T1, GST::P55-93 (PrP peptide) (Syrian golden hamster, UniProt P04273 P04273:55-93); test: EMSA; 5:1 protein:RNA
T1 chain: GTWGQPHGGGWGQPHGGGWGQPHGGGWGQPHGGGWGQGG

[2] = target: T2, GST::P90-109 (PrP peptide) (Syrian golden hamster, UniProt P04273 P04273:90-109); test: EMSA; 5:1 protein:RNA
T2 chain: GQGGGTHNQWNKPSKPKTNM

[3] = target: T3, GST::P218-231 (PrP peptide) (Syrian golden hamster, UniProt P04273 P04273:218-231); test: EMSA; 5:1 protein:RNA
T3 chain: YQKESQAYYDGRRS

[4] = target: T4, GST::bovP93-120 (PrP peptide) (Bos taurus, UniProt P10279 P10279:93-120); test: EMSA; 10:1 protein:RNA
T4 chain: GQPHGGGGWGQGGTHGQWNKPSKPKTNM

Measured: binding result

B1: Ap1 motif I 60mer (ssRNA)
RNA: GCAAUGCGUUGUGUGGGAAUUUGAGGGACGAUGGGGAAGUGGGGACGAAUGACUCAUUGC
no binding: [1] | [2] | [3]

B2: Ap2 motif II (ssRNA)
RNA: GGAGCUCAGCCUUCACUGCUACCUUAGAGUAGGAGCGGGACGAGGGGUUGUUGGGACGUGGGUAUGAUCCAUACAUUAGGAAGCUGGUGAGCUGGCACCACGGUCGGAUCCAC
no binding: all assays above
